Laboratory results: patent US6468969B1, “Inhibition of HIV-1 replication using d-amino acid peptides” (priority 1997, dated 2002)

Sequences of proteins named here, by UniProt entry; tags and fusion partners are left off. Residues count along the entry.
UniProt P06873, 106-384: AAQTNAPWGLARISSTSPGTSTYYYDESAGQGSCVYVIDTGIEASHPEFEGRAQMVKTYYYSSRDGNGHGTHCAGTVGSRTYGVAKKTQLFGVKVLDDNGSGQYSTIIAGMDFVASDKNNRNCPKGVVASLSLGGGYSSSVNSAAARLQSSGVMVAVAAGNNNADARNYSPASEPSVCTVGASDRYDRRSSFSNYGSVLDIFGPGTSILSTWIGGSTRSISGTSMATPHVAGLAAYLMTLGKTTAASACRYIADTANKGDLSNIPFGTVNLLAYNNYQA

Molecular target: proteinase K (Parengyodontium album, UniProt P06873)
Assay: Proteinase K digestion of peptide-TAR RNA photocrosslink products
Conditions: very vigorous proteinase K digestion
Description: For photochemical reactions, RNA duplex was prepared by hybridizing two strands ^24. Strand 1 of the duplex was 5′-end labeled with ^32P. Preformed RNA duplexes(0.02 μM) in the absence or presence of the peptide (0.1 μM) were irradiated ([…]) and analyzed by denaturing gels as described in Wang et al., Biochemistry 35, 6491-6499 (1996).

CC[C@H](C)[C@H](NC(=O)CNC(=O)[C@H](CC(C)C)NC(=O)[C@H](C)NC(=O)[C@H](CCCCN)NC(=O)[C@@H](NC(=O)[C@@H](NC(=O)[C@H](Cc1ccccc1)NC(=O)[C@@H](N)CS)[C@@H](C)O)[C@@H](C)O)C(=O)N[C@@H](CO)C(=O)N[C@@H](Cc1ccc(O)cc1)C(=O)NCC(=O)N[C@@H](CCCNC(=N)N)C(=O)N[C@@H](CCCCN)C(=O)N[C@@H](CCCCN)C(=O)N[C@@H](CCCNC(=N)N)C(=O)N[C@@H](CCCNC(=N)N)C(=O)N[C@@H](CCC(N)=O)C(=O)N[C@@H](CCCNC(=N)N)C(=O)N[C@@H](CCCNC(=N)N)C(=O)N[C@@H](CCCNC(=N)N)C(=O)N1CCC[C@H]1C(=O)N1CCC[C@H]1C(=O)N[C@@H](CCC(N)=O)C(=O)NCC(=O)N[C@@H](CO)C(=O)N[C@@H](CCC(N)=O)C(=O)N[C@H](C(=O)N[C@@H](Cc1c[nH]cn1)C(=O)N[C@@H](CCC(N)=O)C(=O)N[C@H](C(=O)N[C@@H](CO)C(=O)N[C@@H](CC(C)C)C(=O)N[C@@H](CO)C(=O)N[C@@H](CCCCN)C(=O)N[C@@H](CCC(N)=O)C(=O)O)C(C)C)[C@@H](C)O [L-Tat(37-72)]
protease stability of peptide-RNA crosslink products: complete loss of RNA-protein crosslinking
